Results of unrelated studies side by side (data: NIAID ChemDB).

Shared fields: whole-cell or culture tests; agent: Sindbis virus; method: cytopathic effect; read-out: EC50

ECn is the concentration giving n% inhibition of infection, replication or growth. Neighbouring rows are from separate reports.

smiles | cell line | value
Nc1ccn(CC[C@H](O)CCO)c(=O)n1 | VERO | >400 µg/mL
Nc1ncnc2c1ncn2CCCC(O)CF | VERO | >400 µg/mL
Cc1nc(C(C)C)c2[nH]c(=S)[nH]c(=O)n12 | VERO | >200 µg/mL
CC1(CO)CCC(Cn2cnc3c(=O)[nH]c(N)nc32)C1(C)C | VERO | >400 µg/mL
Nc1ncnc2c1ncn2[C@H]1OC[C@@H](CO)C1O | VERO | >80 µg/mL
CC1(C)[C@@H](CCO)C[C@H]1n1cnc2c(=O)[nH]c(N)nc21 | VERO | >400 µg/mL
CCOC(=O)Sc1nnc(-c2cn(-c3ccccc3)nc2-c2ccccc2)n1N | VERO | >80 µg/mL
Nc1ncnc2c1ncn2[C@@H]1O[C@H](C(O)O)[C@@H](O)[C@@H]1O | VERO | >200 µg/mL
CCC(Sc1ncnc2c1cnn2CCCCO)C(N)=O | VERO | >400 µg/mL
CCOC(=O)C1Sc2nnc(-c3cn(-c4ccccc4)nc3-c3ccccc3)n2NC1=O | VERO | >16 µg/mL
CC=NC(=N)c1nc(-c2cccc(OC)c2)n(Cc2ccccc2)n1 | VERO | >10 µg/mL
Nc1ncnc2c1ncn2[C@@H]1C=C(CO)[C@@H](O)[C@@H]1O | VERO | >400 µg/mL
Cc1cn([C@H]2OC[C@@H](CO)C2F)c(=O)[nH]c1=O | VERO | >80 µg/mL
O=c1[nH]n2c(-c3cn(-c4ccccc4)nc3-c3ccccc3)nnc2sc1=O | VERO | >80 µg/mL
O=c1ccn([C@@H]2O[C@H](CO)[C@](O)(C(F)(F)F)[C@H]2O)c(=O)[nH]1 | VERO | >400 µg/mL
CC1=Nn2c(nnc2-c2cn(-c3ccccc3)nc2-c2ccccc2)SC1 | VERO | >16 µg/mL
CC1(C)[C@@H](CO)CC[C@@]1(C)Cn1cc(I)c(=O)[nH]c1=O | VERO | >400 µg/mL
Nc1ncnc2c1ncn2CC[C@H](O)CCO | VERO | >400 µg/mL
CC1(CO)CCC(Cn2cnc3c(Cl)nc(N)nc32)C1(C)C | VERO | >200 µg/mL
Nc1ccn([C@@H]2OC[C@H](CO)[C@H]2O)c(=O)n1 | VERO | >80 µg/mL
CC1(CO)CCC(Cc2nc3ncnc(N)c3[nH]2)C1(C)C | VERO | >10 µg/mL
CO[C@H](CO)[C@@H](O)CCn1cnc2c(N)ncnc21 | VERO | >400 µg/mL
C=CC1=C[C@@H](n2cnc3c(N)ncnc32)[C@H](O)[C@@H]1O | VERO | >200 µg/mL
NC(=O)c1cncc([C@@H]2O[C@H](CO)[C@@H](O)[C@@H]2O)c1 | VERO | ≥100 µg/mL
[N-]=[N+]=NC(CBr)c1cc([C@H]2C[C@H](O)[C@@H](CO)O2)c(F)cc1F | VERO | >16 µg/mL
CC(=O)Nc1nc2c(CC(O)CO)nc(C)n2c(=O)[nH]1 | VERO | >200 µg/mL
CC1(C)[C@@H](CCO)C[C@H]1n1cnc2c(=O)[nH]cnc21 | VERO | >400 µg/mL
CC1(CO)CCC(Cn2cnc3c(N)nc(N)nc32)C1(C)C | VERO | >40 µg/mL
CC1(CO)CCC(Cn2nnc3c(=O)[nH]cnc32)C1(C)C | VERO | >400 µg/mL
CO[C@H](CO)[C@@H](O)CCn1ccc(N)nc1=O | VERO | >400 µg/mL
Nc1nc2c(ncn2CCCC(O)CF)c(=O)[nH]1 | VERO | >400 µg/mL
Nc1ncnc2c1ncn2C1CC(CO)[C@@H](O)[C@H]1O | VERO | 3 µg/mL
Nc1nccc2c1ncn2[C@@H]1C[C@H](CO)[C@@H](O)[C@H]1O | VERO | 7 µg/mL
Nc1nc(F)nc2c1ncn2[C@@H]1C=C(CO)[C@@H](O)[C@H]1O | VERO | 1 µg/mL
NC(=O)CSc1ncnc2c1cnn2CCCCO | VERO | >400 µg/mL
CC=NC(=N)c1nc(-c2ccc(OC)cc2)n(COCCO)n1 | VERO | >100 µg/mL
NC1CSCON2CCc3c([nH]c4ccccc34)[C@H]12 | VERO | 0.2 µg/mL
NC(=O)c1cncc([C@H]2O[C@H](CO)[C@@H](O)[C@@H]2O)c1 | VERO | ≥100 µg/mL
Nc1ccn([C@@H]2C[C@H](CO)[C@@H](O)[C@H]2O)c(=O)n1 | VERO | 0.7 µg/mL
CCC(Sc1ncnc2c1cnn2COCC(O)CO)C(N)=O | VERO | >400 µg/mL
Nc1ncnc2c1ncn2C[C@H](O)CO | VERO | >400 µg/mL
CCON=C[C@H]1O[C@@H](n2cnc3c(N)ncnc32)[C@H](O)[C@@H]1O | VERO | >100 µg/mL
Nc1ncnc2c1ncn2[C@@H]1C=C(CO)[C@@H](O)C1 | VERO | >400 µg/mL
COc1cc2c(cc1OC)[C@@H]1C(N)CSCON1CC2 | VERO | 0.07 µg/mL
Nc1nc(Cl)c2ccn([C@H]3CO[C@@H](CO)C3)c2n1 | VERO | >200 µg/mL
C=C(N=CC)c1nc(-c2ccc(OC)cc2)n(C2O[C@H](CO)[C@@H](O)[C@H](O)[C@H]2O)n1 | VERO | >200 µg/mL
OC[C@H]1O[C@H](c2cc(Cl)c(F)cc2F)C[C@@H]1O | VERO | >80 µg/mL
CC1(C)[C@@H](CO)CC[C@@]1(C)Cn1nnc2c(N)ncnc21 | VERO | >400 µg/mL
Nc1nc(Cl)c2ncn([C@H]3CO[C@@H](CO)C3)c2n1 | VERO | >400 µg/mL
CC(C)CS[C@H]1C[C@@H](n2cnc3c(N)ncnc32)[C@H](O)[C@@H]1O | HeLa | >80 µg/mL
C=C(N=CC)c1nc(-c2cccc(OC)c2)n(C2O[C@H](CO)[C@@H](O)[C@H](O)[C@H]2O)n1 | VERO | >200 µg/mL
CC1(C)[C@@H](CCO)C[C@H]1n1cnc2c(N)nc(N)nc21 | VERO | >400 µg/mL
Nc1ncnc2c1ncn2[C@@H]1C=C(CF)[C@H](O)[C@H]1O | VERO | 7 µg/mL
Nc1ncnc2c1ncn2[C@@H]1O[C@H](C=O)C[C@H]1O | VERO | >200 µg/mL
[N-]=[N+]=N[C@H]1[C@@H](F)[C@H](N2C=CC(N)NC2=O)O[C@@H]1CO | VERO B | >400 µg/mL
Nc1nccc2c1ncn2[C@@H]1C[C@H](CO)[C@@H](O)[C@H]1O | VERO | 4 µg/mL
C[C@H]1O[C@@H](c2n[nH]c(C(N)=O)c2O)[C@H](O)[C@@H]1O | VERO | >200 µg/mL
NC(=S)c1cncc([C@H]2O[C@H](CO)[C@@H](O)[C@@H]2O)c1 | VERO | ≥100 µg/mL
NC1=Nn2c(nnc2-c2cn(-c3ccccc3)nc2-c2ccccc2)SC1 | VERO | >16 µg/mL
CC=NC(=N)c1nc(-c2ccc(C)cc2)n(Cc2ccccc2)n1 | VERO | >10 µg/mL
CC1(C)[C@@H](CO)CC[C@@]1(C)Cn1ccc(=O)[nH]c1=O | VERO | >400 µg/mL
O=C(Nn1c(-c2cn(-c3ccccc3)nc2-c2ccccc2)n[nH]c1=S)c1ccccc1 | VERO | >16 µg/mL
Nc1ncnc2c1ncn2C[C@H](O)CO | BHK | >200 µg/mL
C[C@@]1(O)[C@@H](CO)O[C@@H](n2cnc3c(N)ncnc32)[C@@H]1O | VERO | >100 µg/mL
C=CCc1nc(C)n2c(=O)[nH]cnc12 | VERO | >200 µg/mL
CC1(CO)CCC(Cn2nnc3c(N)ncnc32)C1(C)C | VERO | >40 µg/mL
CC=NC(=N)c1nc(-c2ccccc2)n(Cc2ccccc2)n1 | VERO | >4 µg/mL
COc1ccc2[nH]c3c(c2c1)CCN1OCSCC(N)[C@@H]31 | VERO | 0.02 µg/mL

4 of the rows above, restated:

smiles | cell line | value
Cc1nc(C(C)C)c2[nH]c(=S)[nH]c(=O)n12 | VERO | >200 µg/mL
COc1ccc2[nH]c3c(c2c1)CCN1OCSCC(N)[C@@H]31 | VERO | 0.02 µg/mL
Nc1ncnc2c1ncn2[C@@H]1O[C@H](C=O)C[C@H]1O | VERO | >200 µg/mL
CO[C@H](CO)[C@@H](O)CCn1ccc(N)nc1=O | VERO | >400 µg/mL